Pooled drug test results. Numbers come from NIAID ChemDB, via PubChem.

All rows: growth or infection tests

Inhibition is in % at the dose shown (toxicity tests: loss of growth or viability). An empty or dashed field is not shown. MIC50, MIC90 and the like: level of inhibition, or share of isolates inhibited. Neighbouring rows are from separate reports.

| compound | strain or isolate | organism | changes | read by | endpoint | tested at | conditions | value |
|---|---|---|---|---|---|---|---|---|
| C#CCOC(C)=O | 1173P2 | Mycobacterium bovis BCG | - | resazurin | MIC | - | 48 h | 125 µg/mL |
| CO[C@H]1/C=C/O[C@@]2(C)Oc3c(C)c(O)c4c(O)c(c(/C=N/N5CCN(C)CC5)c(O)c4c3C2=O)NC(=O)/C(C)=C\C=C\[C@H](C)[C@H](O)[C@@H](C)[C@@H](O)[C@@H](C)[C@H](OC(C)=O)[C@@H]1C | Isolate 90-0969 | Mycobacterium avium | - | - | MIC | - | - | 30 µg/mL |
| C[C@H]1c2cccc(O)c2C(O)=C2C(=O)[C@]3(O)C(O)=C(C(N)=O)C(=O)[C@@H](N(C)C)[C@@H]3[C@@H](O)[C@@H]21 | A24001 | Mycobacterium smegmatis | - | - | MIC | - | - | 0.06 µg/mL |
| COc1c(N2CCNCC2)c(F)cc2c(=O)c(C(=O)O)cn(C3CC3)c12 | KD1998 (GYRA D95N) | Mycobacterium smegmatis | - | - | MIC99 | - | - | 0.81 µg/mL |
| NCC[C@H](O)C(=O)N[C@@H]1C[C@H](N)[C@@H](O[C@H]2O[C@H](CN)[C@@H](O)[C@H](O)[C@H]2O)[C@H](O)[C@H]1O[C@H]1O[C@H](CO)[C@@H](O)[C@H](N)[C@H]1O | 37 clinical isolates | Mycobacterium marinum | - | - | MIC90 | - | - | 3 µg/mL |
| N/C(=N\N=C\c1ccccc1OCc1ccccc1)c1ccccn1 | - | Mycobacterium fortuitum | - | - | inhibition | 100 µM | - | 5.1% |
| Cc1cc(NS(=O)(=O)c2ccc(NC(=O)N3CCC3)cc2)no1 | 235/80 | Mycobacterium kansasii | - | broth dilution / absorbance | MIC100 | - | 14 d | 4 µM |
| CN[C@@H]1[C@H](O[C@H]2[C@H](O[C@H]3[C@H](O)[C@@H](O)[C@H](N=C(N)N)[C@@H](O)[C@@H]3N=C(N)N)O[C@@H](C)[C@]2(O)C=O)O[C@@H](CO)[C@H](O)[C@H]1O | isolate C-17 19 26 34 44 | Mycobacterium avium complex | - | - | MIC | - | - | ≤12.5 µg/mL |
| COc1cc(Cc2cnc(N)nc2N)cc(OC)c1OCCCNc1ccc(S(=O)(=O)c2ccc(N)cc2)cc1 | Isolate 5143 | Mycobacterium ulcerans | - | - | MBC | - | - | 2 µg/mL |
| CCC1CN(c2cc3c(cc2F)c(=O)c(C(=O)O)cn3C2CC2)CCN1 | KD1987 (GYRA A91V) | Mycobacterium smegmatis | - | - | MIC99 | - | - | 1.2 µg/mL |
| Nc1ccc(C(=O)O)c(O)c1 | 22 strains | Mycobacterium fortuitum | - | agar | inhibition | 10 µg/mL | - | 0% |
| CCC(C)(C)c1ccc(C=O)cc1 | - | Mycobacterium fortuitum | - | - | inhibition | 1000 µM | - | 24.1% |
| CCCCCCCCCCNC(=O)Nc1ccc(S(=O)(=O)Nc2cc(C)on2)cc1 | 235/80 | Mycobacterium kansasii | - | broth dilution / absorbance | MIC100 | - | 21 d | 125 µM |
| COc1c(N2CCNC(C)C2)c(F)cc2c(=O)c(C(=O)O)cn(C3CC3)c12 | 37 clinical isolates | Mycobacterium marinum | - | - | MIC90 | - | - | 0.38 µg/mL |
| C=C1C(=O)N[C@@H](C)C(=O)N[C@H](CC(C)C)C(=O)N[C@H](C(=O)O)[C@H](C)C(=O)N[C@H](CCCN=C(N)N)C(=O)N[C@@H](/C=C/C(C)=C/[C@H](C)[C@H](Cc2ccccc2)OC)[C@@H](C)C(=O)N[C@@H](C(=O)O)CCC(=O)N1C | - | Mycobacterium chelonae | - | resazurin | MIC | - | - | 2.15 µM |
| COC(=O)C#CC(=O)OC | 1173P2 | Mycobacterium bovis BCG | - | resazurin | MIC | - | 24 h | 3.87 µg/mL |
| COc1c(N2CC(C)NC(C)C2)c(F)cc2c(=O)c(C(=O)O)cn(C3CC3)c12 | KD1163 (GRYA+) | Mycobacterium smegmatis | - | - | MIC99 | - | - | 0.028 µg/mL |
| O=C(OC(=O)c1ccccc1)c1ccccc1 | 1173P2 | Mycobacterium bovis BCG | - | resazurin | MIC | - | 48 h | 500 µg/mL |
| CO[C@@H]1C[C@@H](C[C@H]2CC[C@H](C)[C@H]([C@@H](C)C(=O)O)O2)O[C@]2(O[C@](C)([C@H]3CC[C@@](C)([C@@H]4O[C@@H]([C@H]5O[C@@](O)(CO)[C@H](C)C[C@@H]5C)C[C@@H]4C)O3)C[C@H]2C)[C@@H]1C | - | Mycobacterium aurum | G364T | resazurin | MIC | - | - | 0.32 µg/mL |
| N/C(=N\N=C\c1cccc2ccccc12)c1ccccn1 | - | Mycobacterium fortuitum | - | - | inhibition | 1000 µM | - | 17.1% |
| Cc1cc(NS(=O)(=O)c2ccc(NC(=O)C(=O)Nc3ccc(S(=O)(=O)Nc4cc(C)on4)cc3)cc2)no1 | 235/80 | Mycobacterium kansasii | - | broth dilution / absorbance | MIC100 | - | 7 d | 8 µM |
| CCOc1cc(Cc2cnc(N)nc2N)cc(OCC)c1-n1cccc1 | Isolate 8756 | Mycobacterium ulcerans | - | - | MBC | - | - | 1 µg/mL |
| C#CCO | 1173P2 | Mycobacterium bovis BCG | - | resazurin | MIC | - | 24 h | 125 µg/mL |
| CCCCCNC(=O)Nc1ccc(S(=O)(=O)Nc2cc(C)on2)cc1 | 6509/96 clinical isolate | Mycobacterium kansasii | - | broth dilution / absorbance | MIC100 | - | 21 d | 500 µM |
| CNc1ccc2oc(C[C@@H]3OC4(CC[C@@H]3C)O[C@H](C(C)C(=O)c3ccc[nH]3)[C@H](C)C[C@H]4C)nc2c1C(=O)O | - | Mycobacterium aurum | C410 deletion | resazurin | MIC | - | - | 0.64 µg/mL |
| COc1c(N2CCNC(C)C2)c(F)cc2c(=O)c(C(=O)O)cn(C3CC3)c12 | KD1995 (GYRA D95H) | Mycobacterium smegmatis | - | - | MIC99 | - | - | 0.46 µg/mL |
| O=C(Nc1ccc(C(F)(F)F)cc1)c1cc(Cl)ccc1OP(=O)(c1ccccc1)c1ccccc1 | My 6509/96 | Mycobacterium kansasii | - | - | MIC | - | 7 d | 4 µM |
| CC(C)N=c1cc2n(-c3ccc(Cl)cc3)c3ccccc3nc-2cc1Nc1ccc(Cl)cc1 | 103 | Mycobacterium abscessus | - | resazurin | MIC90 | - | - | 1.3 µM |
| CCN1CCN(c2c(F)cc3c(=O)c(C(=O)O)cn(C4CC4)c3c2F)CC1 | KD1991 (GYRA D95Y) | Mycobacterium smegmatis | - | - | MIC99 | - | - | 2.3 µg/mL |
| C(#Cc1ccccc1)c1ccccc1 | 1173P2 | Mycobacterium bovis BCG | - | resazurin | MIC | - | 24 h | 31.25 µg/mL |
| NNC(=O)c1ccncc1 | 6509/96 clinical isolate | Mycobacterium kansasii | - | broth dilution / absorbance | MIC100 | - | 7 d | 8 µM |
| OCC#CCO | 1173P2 | Mycobacterium bovis BCG | - | resazurin | MIC | - | 24 h | 125 µg/mL |
| CN(C)[C@@H]1C(=O)C(C(N)=O)=C(O)[C@@]2(O)C(=O)C3=C(O)c4c(O)cccc4[C@@](C)(O)[C@H]3C[C@@H]12 | 37 clinical isolates | Mycobacterium marinum | - | - | MIC90 | - | - | 2 µg/mL |
| COc1c(N2CCN(C(C)C)CC2)c(F)cc2c(=O)c(C(=O)O)cn(C3CC3)c12 | KD2003 (GYRA D95G) | Mycobacterium smegmatis | - | - | MIC99 | - | - | 3 µg/mL |
| CCC(C)(C)c1ccc(/C=N/N=C(\N)c2ccccn2)cc1 | - | Mycobacterium fortuitum | - | - | inhibition | 1000 µM | - | 3.1% |
| CO[C@H]1/C=C/O[C@@]2(C)Oc3c(C)c(O)c4c(O)c(c5c(c4c3C2=O)NC2(CCN(CC(C)C)CC2)N=5)=NC(=O)/C(C)=C\C=C\[C@H](C)[C@H](O)[C@@H](C)[C@@H](O)[C@@H](C)[C@H](OC(C)=O)[C@@H]1C | 3010-4 | Mycobacterium avium complex | - | - | MIC | - | - | 0.25 µg/mL |
| CC1CN(c2cc3c(cc2F)c(=O)c(C(=O)O)cn3C2CC2)CCN1 | KD2012 (GYRA G89A) | Mycobacterium smegmatis | - | - | MIC99 | - | - | 0.92 µg/mL |
| CC(C)(C)c1ccc(C=O)cc1 | - | Mycobacterium fortuitum | - | - | inhibition | 1000 µM | - | 9.2% |